{"source": "PubChem BioAssay AID504761 (Drosophila RNAi Screening Center, 2011)", "purpose": "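Insect host genes that dengue virus relies on to spread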 (primary screen)", "system": "D.Mel-2 cells from Drosophila", "knock-down reagent": "long dsRNA against Drosophila genes", "challenge": "infection with dengue virus type 2; dose and infection time not stated", "detection": "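Cells stained for dengue envelope protein and imaged; percent of infected cells per well on duplicate plates, ranked by infection, with stained nuclei counted for cell number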", "scale": "infection score: higher = more virus-infected cells", "hit rule": "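Low infection ranks in the two replicates (chance level up to 0.065) followed by a retest with a 1.5-fold or larger significant decrease, p below 0.05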", "meaning of the calls": "active = confirmed: knock-down lowers infection; inactive = not picked or not confirmed", "note": "In all, the deposit lists about 22,000 reagents; this is an unselected part of those that have a named target and a result. Over the whole deposit, 116 (0.52%) were called active. 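Calls depend on retest data that are not deposited; infection was ranked per plate without normalising between plates; the unit of the infection score is not given.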 A number with no mark means an inactive call. Not all columns of the deposit are shown. Reagent sequences are not shown. Not given: the amount of reagent, the time to read-out."}
{"gene knocked down": "CG10345", "DRSC id": "DRSC14138", "infection score, replicate 1": 7.19}
{"gene knocked down": "CG1273", "DRSC id": "DRSC08291", "infection score, replicate 1": 2.95}
{"gene knocked down": "Ctr1C", "DRSC id": "DRSC15089", "infection score, replicate 1": 6.71}
{"gene knocked down": "CG8170", "DRSC id": "DRSC07087", "infection score, replicate 1": 8.84}
{"gene knocked down": "CG10339", "DRSC id": "DRSC04065", "infection score, replicate 1": 3.97}
{"gene knocked down": "Or85a", "DRSC id": "DRSC16764", "infection score, replicate 1": 15.4}
{"gene knocked down": "CG13970", "DRSC id": "DRSC02311", "infection score, replicate 1": 2.42}
{"gene knocked down": "CG13970", "DRSC id": "DRSC29509", "infection score, replicate 1": 17.8}
{"gene knocked down": "CG8476", "DRSC id": "DRSC16426", "infection score, replicate 1": 2.31}
{"gene knocked down": "CG8476", "DRSC id": "DRSC27865", "infection score, replicate 1": 11.1}
{"gene knocked down": "CG5592", "DRSC id": "DRSC10524", "infection score, replicate 1": 1.33}
{"gene knocked down": "CG15544", "DRSC id": "DRSC15082", "infection score, replicate 1": 4.9}
{"gene knocked down": "CG15544", "DRSC id": "DRSC25686", "infection score, replicate 1": 1.86}
{"gene knocked down": "coil", "DRSC id": "DRSC07242", "infection score, replicate 1": 2.24}
{"gene knocked down": "coil", "DRSC id": "DRSC26055", "infection score, replicate 1": 4.57}
{"gene knocked down": "CG34309", "DRSC id": "DRSC14838", "infection score, replicate 1": 20}
{"gene knocked down": "Akh", "DRSC id": "DRSC08138", "infection score, replicate 1": 4.22}
{"gene knocked down": "Akh", "DRSC id": "DRSC28433", "infection score, replicate 1": 0.42}
{"gene knocked down": "CG12729", "DRSC id": "DRSC17884", "infection score, replicate 1": 7}
{"gene knocked down": "CG12729", "DRSC id": "DRSC27092", "infection score, replicate 1": 7.53}
{"gene knocked down": "CG5882", "DRSC id": "DRSC15907", "infection score, replicate 1": 10.7}

A stretch of the results above, for reference:
{"gene knocked down": "CG5592", "DRSC id": "DRSC10524", "infection score, replicate 1": 1.33}
{"gene knocked down": "CG15544", "DRSC id": "DRSC15082", "infection score, replicate 1": 4.9}
{"gene knocked down": "CG15544", "DRSC id": "DRSC25686", "infection score, replicate 1": 1.86}
